Measurements reported in PMC9948739.
For part of these data: For at least one entry, the source does not settle the construct or the ends of the probe. For part of these data: At least one verdict was read from the data and is not stated in words by the source.

Experiments:
[1] = molecular target: His-OpaR (Vibrio parahaemolyticus RIMD2210633) (UniProt Q79YV4); experiment: EMSA; settings: 10 mM Tris-HCl pH 7.5, 50 mM NaCl, 1 mM MgCl2, 0.5 mM EDTA, 0.5 mM DTT, 100 ng DNA in 10 ul, room temperature 20 min, recombinant protein, residues 1-204, protein details: 6xHis (pET28a), probe letters rebuilt from the primers and the genome
[2] = tested on: His-QsvR (Vibrio parahaemolyticus RIMD2210633); experiment: EMSA; settings: 10 mM Tris-HCl pH 7.5, 50 mM NaCl, 1 mM MgCl2, 0.5 mM EDTA, 0.5 mM DTT, 100 ng DNA in 10 ul, room temperature 20 min; recombinant protein; residues 1-267; protein details: 6xHis (pET28a); probe letters rebuilt from the primers and the genome
[3] = QsvR titration, no competition between proteins

Sequence | binding result [1] | binding result [2] | binding result [1, 3]
AACGACACTCTGAGCATCATTCGTCTAAGTGTAACAAAGCATAATGTTGTACTTATCTCGAATGTCAATTCGCTACTTACTTCGATATTGACGGGTTAGTGTTAGTTATGGCTGGGTGATCCTTCATTACACCAGTACGCTCTAGTTAAAATCACTAAAACCGCCTGCAAATAAATTGTCTTTTCAATGAGACGCATTCTTTAGAACTTGGTAAAATCCCATAGGAAACTATTTACATGCTGATTGTTTTTTAACTAAAATGACAAATGGTATGTTCTAAACAGACCAAACATCGATGTTTTAAAATCTGAAATACAAGGATTAATAATGAAGAACACAGCTCTAGCTATTCTTATGGCTCTAAGCGCATCAACTGCATTCGCAGCTGAAGAAGCAGGTTCTGCTGGTGCAGCATCTGCATCTGCAACAGGTACAACTGCAGTAGCAGTAGGTGCAGCAGCAGCAGTAACTGTAGTAGCAGTTGCAGCG (double strand) [vp0218 regulatory fragment] | binds | binds | 
ATGGCATCACGACCTGTCTCGACATGGAAAATGTCGTAAGGCTCATCTTTCACATATTGCTTATAAAGTATGGCTAATGAGGTAGAGTCTTCTACCAGTAACACCCTTGGTCTCATAGTCCTATCCCAACTTAATCTGATTCATTGTTATGATTCTGCTAGCTCACTTGGAGATTAATGAGAAAGAAAAAATAGATAAGCATCCTCAAGTCGCTAGAAGATTCTCAATTTGAGAAAAGTTATAGTTAAGTATTAGCACAGGGCAGGGATATTGCGAAAATTCTTTACTTTTTAATTGATTAAGCGCGGAATGAATTTTAAAAGATGAAGACCAAATCGCACTTGAATAAGTGCGATGGTTCATATGGTTTTGCGGGTTTTCTTCTTGTTACTCAAAACCTTGAGCCTTGCGCAGGTTGAGCGCTTCAAACGAACGTTCAGCTAGTAAAGGCAATGCCGCACACAGCTCCAATGCTTGTTGGGTTTTACCTTCGACACAATGTTTCTCGATGCTTCTGGCTTGACGAGATAATGGGCGATTGCCTAATGCCAGTGCAGAACTGCCGAGTGTATGGACTTCAAACTCGAGTTTTTCTAGGTCATGTTCACCCAACGCCCGCTCAATTTTTTGCATCCGTTCACGAGACTCTT (double strand) [scvE upstream fragment] | binds |  | 
CCAGCCATAACTAACACTAACCCGTCAATATCGAAGTAAGTAGCGAATTGACATTCGAGATAAGTACAACATTATGCTTTGTTACACTTAGACGAATGATGCTCAGAGTGTCGTTGCTCTCAAAAACAAGAATGCCTATTCTCAAACGTTAGAGTGAGCCCCCTTGCCGTTTTGCGCTAATCCATGCATAATTTGCCAGCTTTTATGCTGTGCTTATCAAGTATGATTTTTTGATTTTCTTGTCACAAAAGCGACGCTTGAAAAAAGCACCTATATCAATAAGCCGAGCAGCTCGGTAATCAGCGAACAGTGGCTACGCGTAATGCCGCAGGGCGGTAGCGTGAAAACGCACAAGCAAACAGACTAAAGAGTTAACAGACATTCACTGCGTGCGTCATTCATGTGCAGCGGTCAGTCAATACCCAAGGAACACTTACGTGATGAACAAACGACCATTGCTAGGGGCGTTGAGTGCAATCAGCTTAGGCTTGTGCTCATTT (double strand) [vp0219 regulatory fragment] | binds | binds | 
CTTCCCTGTAAATAAGTCATCCGTTAGACCATCAAGAAATTAAACCTTAGTTTTTATAATCAAACTCGCTTCTTAATACTTTTCCTCATCCCTGCTTAGCAAGTACCAGCTTTTTCCTAAACAGCAAAACTTAGCCAAAGGTCTAAATTTCATTCTTATTTCCACTTACCTAAACAACACGAATTTTTAAACTTACCTTCGAATTTATGCGTTACAGAAATTCAGAAACATTCATAGAAATGTCTCTGCTCATCAATTAAAACGTTCGCGACACGGCTATTGGGCAATCACCCCAATGGCGGTAGCGTGCTAGAAGGGAAACTAGGTCATGAAACACAAAGGACTAATTCGTTCTTATGAGATGGAGTTCGCTT (double strand) [cpsA upstream fragment] | binds |  | 
GATACTATCGCTGAATACGCAGAAACCGGAGTCGATTACATTTCGGTAGGCGCACTAACTAAGCATCTAAAAGCGATGGATCTTTCGATGCGCTTCAAATAACACAAGCAACAAAATTCATATTACTTCAACTAACTCAGTAAGTTGTAAGTAATTCATCATTAAAAAGGGCCACTAGGCCCTTTCTTTTTATCCATTAAAAAATAGCATTACTCGCAAAACTCTGCATACGATATGCAACTTTCTACCAAAGAGTTTTACCTCACTCGAGACCCCATCTCTTCCCCATTTTCAACCTTTATGAAGTCTCCATAATCCTTCGCTAATGCAAGGGCATTATTTATTTCATTAAGAAGGAAAGAAAATGAAACACAGTAAACAGAAAAAACAACAGGGTTTCACTCTGATTG (double strand) [pilA upstream fragment] |  | binds | binds
TAGCACGCTTGTGTTGGACTTCTCGCGAGCGATACGCACGTTGTACTTTGCTTGATACGGAAAGCGTTTTATCCCCTACTTCGATATCGATAGGTTCTTCGACGGGTTTGAATACGCACTGCTGAGCAGAAAGTGATTGATCAACCCAAACGAATTTCACGCCACTTGCGCGAAGCTTTTTAATGCCTTCTGCGCTCGAAACTCGACCAGCATTGGCTAAATTGACTCGTTTGTTATGCTCTATCGCGGTAACAAACATGCCGACAGCAACATCTGCGATTGCAATTTTAATTGAGTCTTCTGGGTTGTACTGCATATGGTGACATTTATTAAATACTATTAGGTAACGCGTGCATTATAAAAGATATCGCGCATAGCTGTTATAAGAATCCTCAATTCATTTCAATTAATGAGTATTCAGTCAATTAATAGAGCGATTTACTTCATAAAACCATTTTATTTTTATGGACTTAGCTCAAGAAATGACAGCATTATTAACTAATTTTAATAATTTGAGGAATGCATCAATAACTATTTCATATAAACACGATTTACTGTTGACTAAGTTTTATAAATATCGATGATCAGCAAGTTAAACTGAACGAAGTTTTATTCATTTGAAAGCGCAAGAACATGACTGTCTACTATTTTAAATTAGCATTTGTATCTTAATAATGCGCATGATTACTTCATTTCCCTG (double strand) [scrG upstream fragment] |  | binds | binds
TGTTCAGCGTTATCACCAAGCGTGGTTAGTGCAAGGTGAGCCCAATCATATGGAAATGGATGGTTTTCAACTCACCATGACTGAAGGGGGATTGGTGTCGCCGTTCACACAACAAGGCGTACTCGATTGCGGATATTGGTTAGCTGTTCATTACCCGCAACGTAAGATTATGGCTAGTGAGTTATTAGATATTAGCGGAACAATCAAAAGTAATCGTTATATCTGCAACTATACTTATGAAAGTGGCCAAACAATTGTAGTTATGTCTACCGCTAATCGACTGATAATAGACGTCGAAATGTCGGCGGAGTGATTTTTTTGACACTTAAGTACTATAAATGGGAATGAAAGTCGGTATAATGCAAACATTACCATAAGCCTAAGGTTGTAATAAAAGGTAAACCATAAAATGATTACCTTTGTTATCAAACCTTTTCGGAATAATGGCGATTCGTCATTCTGCTCAAGCGGTAGATACAGTATCCACTTCACGGTCAGTTTTAGTGAACGTTGCTGCTCCAAACCGTTTTGACAATATCCAAAATGGTCGCGTGACCTAAACGAAACCTTGCAGTCACACTGCATGCTTACATAGAGAGAGTAAACAATGAAAAGACAAGGTGGTTTCACCCTTATCGAACTAGTAGTGGTTATTGTAATCCTAGGTATTTTAGCGGTAACTGCAGCACCACGTTTCCTTAACCTACAATCAGATGCTCGTGAATCTGCGCTTCAAGGCCTAAAAGGTGCGATTGATGGTGCTTCTGGTAT (double strand) [mshA1 upstream fragment] |  | binds | binds
